Assay results taken from US20230132667.
Construct, isoform or probe ends are uncertain for at least one entry.

Tested on: Tat arginine-rich motif peptide (Tat-ARM) (HIV-1)
Assay: binding assay
Conditions: NMR TOCSY shifts, 0.5 mM RNA, 2x ligand, 50 mM K phosphate, 50 mM NaCl, 25 C; purified recombinant protein; label: 5'-32P (EMSA)

“GGCAGAUCUGAGCCUGGGAGCUCUCUGCC [HIV-1 TAR]”: binds.
